Values of other authors in patent publication US6340461B1 (priority 1996, dated 2002).

Test system: T cells
Conditions: cited from earlier work

N-Ser-Glu-Lys-Ser-Glu-Glu-Ile-Asn-Glu-Lys-Asp-Leu. Arg Lys-Lys-Ser-Glu-Leu-Gln-Gly-Thr-Ala-Leu-Gly-Asn-Leu-Lys-
effect on SEA induced T cell proliferation and production of interferon γ: blocks SEA induced T cell proliferation and production of interferon γ
